Measured values from several laboratories, pooled; numbers as filed in NIAID ChemDB.

Common to all: whole-cell or culture tests; agent: Mycobacterium avium

Blank or dashed fields: not listed here. Lines come from different laboratories, so protocols vary. A number after MIC or MFC names an inhibition level or a share of isolates.

structure	strain or isolate	endpoint	conditions	result
CCOC1Oc2ccc(Cl)cc2C(=O)/C1=C/Nc1nc2ccc(Cl)cc2s1	MY 80/72	MIC	-	>100 µg/mL
O=c1oc2ccc(Cl)cc2c(=O)n1-c1cccc(Cl)c1	MY330/88	MIC	-	8 µM
COc1ccc(C(=O)Nc2cc(C)on2)c(O)c1	MY330/88	MIC	-	250 µM
N#CCCSc1ccnc(C#N)c1	330/88	MIC	-	250 µM
CCCCCCCOc1cccc(NC(=O)OCCN(C)C)c1	MY330/88	MIC	-	16 µM
COc1ccc(/C=N/n2c(C)nc3scc(-c4ccco4)c3c2=O)cc1	CNCTC MY330/88	MIC	-	15 µM
Clc1ccc(-n2nnc(SCc3ccccc3)n2)cc1Cl	CNCTC MY330/88	MIC	-	62.5 µM
O=c1oc2ccc([N+](=O)[O-])cc2c(=O)n1Cc1ccc(Cl)c(Cl)c1	MY330/88	MIC	-	250 µM
N/C(=N\NC(CC(=O)c1cccc(Cl)c1)c1cccnc1)c1ccccn1	17 strains	MIC50	-	32 µg/mL
CCCCCOc1ccc(NC(=O)OCCN2CCCCC2)cc1	MY330/88	MIC	-	62.5 µM
CCOC1Oc2ccc(Cl)cc2C(=O)/C1=C/Nc1nc2ccccc2s1	MY 80/72	MIC	-	>100 µg/mL
COc1ccc(CSc2nnn(-c3ccc(Br)cc3)n2)cc1	CNCTC MY330/88	MIC	-	32 µM
Cc1ccnc(NC(=O)c2cc(Cl)ccc2O)n1	MY330/88	MIC	-	250 µM
CCC(O)C#CC#C/C=C\C(=O)OC	-	MIC	-	25 µg/mL
COc1ccc(-n2nnc(SCc3ccccc3)n2)cc1	CNCTC MY330/88	MIC	-	62.5 µM
Clc1ccc(/C(Cn2ccnc2)=N/OCc2ccc(-c3ccccc3)cc2)c(Cl)c1	CIP103317	MIC	-	>16 µg/mL
O=c1oc2ccccc2c(=O)n1Cc1ccc(F)cc1	MY330/88	MIC	-	125 µM
O=C(Oc1cc(Cl)ccc1C(=O)Nc1cccc(Cl)c1)c1cnccn1	330/88	MIC	21 d	8 µM
CCCCOc1cccc(NC(=O)OC(COCC)CN2CCCCC2)c1	MY330/88	MIC	-	125 µM
Cc1ccc(-n2c(=O)oc3ccccc3c2=O)cc1	CNCTC MY330/88	MIC	-	62 µM
Cc1ccc(/C=N/n2c(C)nc3scc(-c4ccco4)c3c2=O)cc1	CNCTC MY330/88	MIC	-	56 µM
O=C(Oc1ccc(Cl)cc1C(=O)Nc1ccc(Cl)c(Cl)c1)c1cnccn1	330/88	MIC	14 d	4 µM
CCSc1cc(C(N)=S)cc(Br)n1	80/72	MIC	-	500 µM
N/C(=N\NC(CC(=O)c1cccc(Cl)c1)c1ccncc1)c1ccccn1	17 strains	MIC90	-	80 µg/mL
CN(C)c1ccc(-n2c(=O)oc3cc(Cl)ccc3c2=O)cc1	CNCTC MY330/88	MIC	-	62 µM
O=C(N/N=C(\COc1ccc(Cl)cc1)N=Cc1ccncc1)c1ccncc1	ATCC 19421	MIC	-	>100 µg/mL
N#CCCCSc1ccnc(C(=N)N)c1	330/88	MIC	-	1000 µM
CCCCCCOc1cccc(NC(=O)OCCN2CCCCC2)c1	MY330/88	MIC	-	16 µM
CC(C)(C)c1cc(C(C)(C)C)c2oc(C(N)=O)nc2c1	MY330/88	MIC	-	125 µM
O=C(N/N=C/c1coc2ccc(Cl)cc2c1=O)c1ccncc1	MY 80/72	MIC	-	>100 µg/mL
Cc1cccc(OC/C(N=Cc2ccncc2)=N\NC(=O)c2ccncc2)c1	ATCC 19421	MIC	-	>100 µg/mL
Cc1nc2scc(-c3ccco3)c2c(=O)n1/N=C/c1ccc(F)cc1	CNCTC MY330/88	MIC	-	10 µM
C=C1C(=O)O[C@@H]2/C=C(\C)CC[C@H]3OC3(C)CC[C@@H]12	-	MIC	-	128 µg/mL
N#CCSc1ccnc(C#N)c1	330/88	MIC	-	500 µM
O=C(N/N=C(\COc1ccc([N+](=O)[O-])cc1)N=Cc1cccnc1)c1ccncc1	ATCC 19421	MIC	-	>100 µg/mL
Cc1nc2scc(-c3ccco3)c2c(=O)n1/N=C/C1CCCCC1	CNCTC MY330/88	MIC	-	62 µM
CSc1cc(C(N)=S)cc(Br)n1	80/72	MIC	-	500 µM
Cc1ccc(C(=O)CC(N/N=C(\N)c2ccccn2)c2ccncc2)cc1	17 strains	MIC90	-	320 µg/mL
C/C=C(\C)C(=O)OC/C=C\C#CC#C/C=C\C(=O)OC	-	MIC	-	>100 µg/mL
N/C(=N\NC(CC(=O)c1ccc(-c2ccccc2)cc1)c1cccnc1)c1ccccn1	17 strains	MIC50	-	80 µg/mL
Cc1nc2scc(-c3ccco3)c2c(=O)n1NC(=O)c1ccco1	CNCTC MY330/88	MIC	-	101 µM
NC(=O)c1cnccn1	330/88	MIC	21 d	>1000 µM
CCCCCCCSc1cc(C(N)=O)cc(Br)n1	80/72	MIC	-	>1000 µM
N#Cc1ccnc(SCC(O)CO)c1	330/88	MIC	-	1000 µM
Cc1cccc(C(=O)CC(N/N=C(\N)c2ccccn2)c2ccccn2)c1	17 strains	MIC50	-	160 µg/mL
CC(C)(C)c1cc(C(C)(C)C)c2nc(C(=O)NC(Cc3ccc(O)cc3)C(=O)O)oc2c1	MY330/88	MIC	-	>1000 µM
CCCCCCCCC(CC)OC(=O)c1cnc(Cl)cn1	101	MIC	-	>256 µg/mL
C/C=C(/C)C(=O)OC/C=C\C#CC#C/C=C\C(=O)OC	-	MIC	-	25 µg/mL
CCOC(=O)c1ccc(-n2c(=O)oc3ccccc3c2=O)cc1	CNCTC MY330/88	MIC	-	62.5 µM
N/C(=N\NC(CC(=O)c1ccc(Cl)cc1)c1cccnc1)c1ccccn1	17 strains	MIC90	-	160 µg/mL
NC(=S)CSc1cc(C(N)=S)ccn1	330/88	MIC	-	62 µM
CCCCCCCCSc1cc(C(N)=S)cc(Br)n1	80/72	MIC	-	250 µM
O=c1oc2ccc(Cl)cc2c(=S)n1-c1ccc(Cl)c(Cl)c1	MY330/88	MIC	-	16 µM
CCc1cc(C(N)=S)ccn1	1854-4	MIC	-	0.63 µg/mL
Fc1ccc(/C(Cn2ccnc2)=N/OCc2ccc(-c3ccccc3)cc2)cc1	CIP103317	MIC	-	8 µg/mL
COc1ccc(OC/C(N)=N\NC(=O)c2ccncc2)cc1	ATCC 19421	MIC	-	100 µg/mL
N/C(=N\NC(CC(=O)c1ccc(Cl)c(Cl)c1)c1ccccn1)c1ccccn1	17 strains	MIC90	-	32 µg/mL
COc1ccc(NC(=O)OCCN(C)C)cc1	MY330/88	MIC	-	>1000 µM
CCCCCCC(C)(CCCC)OC(=O)c1cnc(Cl)cn1	101	MIC	-	>256 µg/mL
CCCCCCCCOc1ccc(NC(=O)OCCN2CCCCC2)cc1	MY330/88	MIC	-	8 µM
CCCOC(=O)c1cnc(C)cn1	ATCC49601	MIC	-	64 µg/mL
CCCCCCSc1cc(C(N)=S)cc(Cl)n1	80/72	MIC	-	60 µM
Clc1ccc(/C(Cn2ccnc2)=N\OC/C=C/c2ccccc2)c(Cl)c1	CIP103317	MIC	-	8 µg/mL
Cc1ccc(-n2c(=S)oc3ccc(Cl)cc3c2=S)cc1	MY330/88	MIC	-	16 µM
O=C(N/N=C(\COc1cccc(Cl)c1)N=Cc1ccncc1)c1ccncc1	ATCC 19421	MIC	-	>100 µg/mL
CCCCCCCC(OC(=O)c1cnc(Cl)cn1)C(C)(C)C	101	MIC	-	>256 µg/mL
COc1ccc(-n2nnc(SCc3ccc(C)cc3)n2)cc1	CNCTC MY330/88	MIC	-	125 µM
CCSSC(SC)C(N)=O	225	MIC	-	1000 µM
CC[C@H]1OC(=O)[C@H](C)C(=O)[C@H](C)[C@@H](O[C@@H]2O[C@H](C)C[C@H](N(C)C)[C@H]2O)[C@](C)(OC)C[C@@H](C)C(=O)[C@H](C)[C@H]2N(CCCCn3cnc(-c4cccnc4)c3)C(=O)O[C@]12C	Isolate 1110	MIC	-	40 µg/mL
CCCCCCCCOC(=O)c1cnccn1	ATCC 25291	MBC	-	200 µg/mL
COc1ccc(Cn2c(=O)oc3cc(Cl)ccc3c2=O)cc1	MY330/88	MIC	-	125 µM
NC(=S)c1cc(N2CCCCC2)ccn1	330/88	MIC	-	125 µM
CCCCCCCOc1ccccc1NC(=O)OC(COCC)CN1CCCCC1	MY330/88	MIC	-	250 µM
CCCCCOc1cccc(NC(=O)OCCN(C)C)c1	MY330/88	MIC	-	32 µM
COc1ccc(CSc2nnn(-c3ccc(OC)cc3)n2)cc1	CNCTC MY330/88	MIC	-	62.5 µM
c1ccc(/C(Cn2ccnc2)=N/OCc2ccc(-c3ccccc3)cc2)cc1	CIP103317	MIC	-	8 µg/mL
NC(=O)c1cnccn1	ATCC 25291	MIC	-	>200 µg/mL
O=c1oc2ccc(Cl)cc2c(=S)n1-c1ccc(Br)cc1	MY330/88	MIC	-	31 µM
Cc1cccc(OC/C(N)=N\NC(=O)c2ccncc2)c1	ATCC 19421	MIC	-	>100 µg/mL
O=c1c(/C=N/c2nc3c(Cl)cccc3s2)coc2ccc(Cl)cc12	MY 80/72	MIC	-	>100 µg/mL
CCOC(=O)c1c(-c2ccco2)csc1NC(C)=O	CNCTC MY330/88	MIC	-	>1000 µM
CC(C)C1Nc2cc(C(C)(C)C)cc(C(C)(C)C)c2O1	MY330/88	MIC	-	1000 µM
Cc1nc2scc(-c3ccco3)c2c(=O)n1N	CNCTC MY330/88	MIC	-	515 µM
CCCCCCCCOc1ccc(NC(=O)OCC[NH+]2CCCC2)cc1	MY330/88	MIC	-	16 µM
CCOC(=O)CSc1ccnc(C(N)=S)c1	330/88	MIC	-	250 µM
O=C(Nc1cncs1)c1cc(Br)ccc1O	MY330/88	MIC	-	125 µM
Clc1ccc(-n2nnc(SCc3ccccc3)n2)cc1	CNCTC MY330/88	MIC	-	62.5 µM
N/C(=N\NC(CC(=O)c1ccc(Cl)cc1Cl)c1ccccn1)c1ccccn1	17 strains	MIC50	-	16 µg/mL
Cc1cc(C)nc(NC(=O)c2ccccc2O)n1	MY330/88	MIC	-	1000 µM
O=C(Oc1cc(Cl)ccc1C(=O)Nc1cccc(F)c1)c1cnccn1	330/88	MIC	14 d	8 µM
O=C(O)c1cnc(Cl)cn1	101	MIC	-	1024 µg/mL
CCCCCC(O)CC(=O)CCc1ccc(O)c(OC)c1	-	MIC	-	>100 µg/mL
Cc1ccc(C(=O)Nc2nc(C)cc(C)n2)c(O)c1	MY330/88	MIC	-	1000 µM
Cc1ccc2occ(/C=N/NC(=O)c3cc(O)c(O)c(O)c3)c(=O)c2c1	MY 80/72	MIC	-	>100 µg/mL

Again, the opening 8 rows:

{"structure": "CCOC1Oc2ccc(Cl)cc2C(=O)/C1=C/Nc1nc2ccc(Cl)cc2s1", "strain or isolate": "MY 80/72", "endpoint": "MIC", "result": ">100 µg/mL"}
{"structure": "O=c1oc2ccc(Cl)cc2c(=O)n1-c1cccc(Cl)c1", "strain or isolate": "MY330/88", "endpoint": "MIC", "result": "8 µM"}
{"structure": "COc1ccc(C(=O)Nc2cc(C)on2)c(O)c1", "strain or isolate": "MY330/88", "endpoint": "MIC", "result": "250 µM"}
{"structure": "N#CCCSc1ccnc(C#N)c1", "strain or isolate": "330/88", "endpoint": "MIC", "result": "250 µM"}
{"structure": "CCCCCCCOc1cccc(NC(=O)OCCN(C)C)c1", "strain or isolate": "MY330/88", "endpoint": "MIC", "result": "16 µM"}
{"structure": "COc1ccc(/C=N/n2c(C)nc3scc(-c4ccco4)c3c2=O)cc1", "strain or isolate": "CNCTC MY330/88", "endpoint": "MIC", "result": "15 µM"}
{"structure": "Clc1ccc(-n2nnc(SCc3ccccc3)n2)cc1Cl", "strain or isolate": "CNCTC MY330/88", "endpoint": "MIC", "result": "62.5 µM"}
{"structure": "O=c1oc2ccc([N+](=O)[O-])cc2c(=O)n1Cc1ccc(Cl)c(Cl)c1", "strain or isolate": "MY330/88", "endpoint": "MIC", "result": "250 µM"}